Source: patent EP3370777B1

Biological target: His-tagged eukaryotic Elongation Factor 2 (eEF2) expressed in S. cerevisiae
Test: cell-based or functional assay

Substance: Lyophilized Exotoxin A from Pseudomonas aeruginosa (Sigma Aldrich) (from UniProt P11439 26-638)
- ADP-ribosylation activity EC50 [µg/µl] (Example 3a, manufacturer's protocol): 2.65 µg/µL
- ADP-ribosylation activity EC50 [µg/µl] (Example 3b, method of the invention): 1.22 µg/µL
